Taken from: PubChem BioAssay AID504761 (Drosophila RNAi Screening Center, 2011)
The deposit covers about 22,000 reagents; below is an unselected part of those that have a named target and a result. In the full data, 116 (0.52%) got an active call. 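Calls depend on retest data that are not deposited; infection was ranked per plate without normalising between plates; the unit of the infection score is not given.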 The raw values are shown without normalisation. Unmarked entries are inactive. The numbers tell different reagents against one gene apart. Further read-outs or replicates are left out here. Not stated in the record: the amount of reagent, the time to read-out.

Screen: 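Insect host genes that dengue virus relies on to spread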 (primary screen)
Cells: D.Mel-2 cells from Drosophila
Reagents: long dsRNA against Drosophila genes
Conditions: infection with dengue virus type 2; dose and infection time not stated
Read-out: 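Cells stained for dengue envelope protein and imaged; percent of infected cells per well on duplicate plates, ranked by infection, with stained nuclei counted for cell number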
Reading the numbers: infection score: higher = more virus-infected cells; cell count: higher = more cells in the well
Hit rule: 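Very low infection ranking in both replicate wells (chance probability at most 0.065), then a retest showing infection dropped 1.5-fold or more at p below 0.05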
Meaning of the calls: active = confirmed: knock-down lowers infection; inactive = not picked or not confirmed

Silencing of abs resulted in: infection score, replicate 1 = 13.3; cell count, replicate 1 = 3385.
Gr66a showed infection score, replicate 1 = 0.13 (active); cell count, replicate 1 = 6098.
Swim scored infection score, replicate 1 = 12.2; cell count, replicate 1 = 5982.
Against OdsH, the values are infection score, replicate 1 = 1.97; cell count, replicate 1 = 6412.
Silencing of Jhbp5 gave: infection score, replicate 1 = 5.25; cell count, replicate 1 = 6475.
For CG7352, the values are infection score, replicate 1 = 8.49; cell count, replicate 1 = 6923.
Cbp53E #1 gave infection score, replicate 1 = 9.91; cell count, replicate 1 = 5884.
Against Cbp53E #2, the values are infection score, replicate 1 = 5.05; cell count, replicate 1 = 6972.

As entered above:
For “infection score, replicate 1”, Jhbp5 reads 5.25
OdsH, cell count, replicate 1 → 6412

Next reagents:
For Wee1 #1, the values are infection score, replicate 1 = 4.72; cell count, replicate 1 = 6099.
Against Wee1 #2, the values are infection score, replicate 1 = 1.24; cell count, replicate 1 = 6713.
Depletion of Nprl3 resulted in: infection score, replicate 1 = 7.24; cell count, replicate 1 = 6066.
Knock-down of Drgx #1 gave: infection score, replicate 1 = 13.5; cell count, replicate 1 = 6270.
Depletion of Drgx #2 resulted in: infection score, replicate 1 = 6.1; cell count, replicate 1 = 6347.
Drgx #3 gave infection score, replicate 1 = 18.1; cell count, replicate 1 = 5230.
